From the supplement of paper PMC9931576
Human monoclonal antibodies against the spike receptor-binding domain (heavy:light variable regions). IC50 against pseudoviruses bearing the spike of naturally observed variants; lower = stronger; >10 µg/ml means not reached at the top dose. No active / inactive call. The stated detection limit is 0.0005 µg/ml; values near or below 0.001 µg/ml lie at the floor of the assay.

B1: BD57-0285 (protein)
chain 1: QVHLVESGGGVVQPGRSLRLSCAASGFTFSSYALHWVRQAPGKGLEWLAVISNDGSKNYYVDSVKGRLTISRDNSKNTLYLQMNSLRPEDTAVYYCARGKVAGTIEYYYYGLDVWGQGTTVTVSS
chain 2: AIQLTQSPSSLSASVGDRVSITCRASQGISSALAWYQQKPGKAPKLLIYDASSLESGVPSRFSGSGYGTDFTLTISSLQAEDFATYYCQQFNVYPWTFGQGTKVEIK
B2: BD57-0284 (protein)
chain 1: QVQLVESGGGVVRPGRSLRLSCAASGFTFSNYDMHWVRQAPGKGLEWLALISSDGSSKFYADSVKGRFTVSRDNSKNTLYLQMSTLRAEDTAVYYCARDPGLSTMVTYFQHWGQGTLVTVSS
chain 2: DIQMTQSPSLLSASVGDRVTITCRASQSISSYLNWYQQKPGKAPKLLIYGASSLESGVPSRFSGSGSGTDFTLTISSLQPEDFATYYCQQSYTTLALTFGGGTKVEIK
B3: BD57-0283 (protein)
chain 1: EVQLVQSGAEVKKAGESLKISCKTSGYSFTRYWIGWVRQMPGKGLEWMGIIYPGDSDTTYSPSFQGQVTISADKSINTAYLQWSSLKASDTAMYYCATMMRGPSSGDPFEYWGQGTLVTVSS
chain 2: DIQMTQSPSSVSASVGDRVTITCRASQGISSWLAWYQQKPGKAPKVLIYAASSLQSGVPSRFSGSGSGTDFTLTISSLQPEDFATYYCQQGSSLPLTFGGGTKVEIK
B4: BD57-0279 (protein)
chain 1: QVQLQESGPGLVKPSQTLSLTCAVSGGSISSGGYYWTWIRQHPGKGLEWIGYISYSGSTYYNPSLKSRLTISVDTSKNQFSLKLSSVTAADTAVYYCARERAYDSSGPKGYFDYWGQGTLVAVSS
chain 2: SYVLTQPPSVSVAPGQTARITCGGDTIGSKNVHWYQHRPGQAPVLVVYDDSDRPSGIPERFSGSNSGNTATLTISRVEAGDEADYYCQVWDSTSDHPYVFGTGTKVTVL
B5: BD57-0275 (protein)
chain 1: QVQLVQSGAEMKKPGSSVKVSCKASGGTFSSYTFTWVRQAPGQGLEWMGRIIPILGVADSAQKFQGRVTISADKSTSTVYMELSSLRSEDTALYYCARERGYSDSGSAYYFDSWGQGTLVTVSS
chain 2: QSVLTQPPSVSGAPGQRVTISCTGSNSNLGAGYDVHWYQQLPGAAPKLLIYANTNRPSGVPDRFSGSKSGTSASLAITGLQAEDEADYYCQSYDSGLSGSLFGGGTKLTVL
B6: BD57-0292 (protein)
chain 1: QVQLQESGPGLVKPSETVSLTCTVSGGSISNYYWTWIRQPPGKGLEWIGHLYYSGYINYSPSLKSRVTMSVDTSKNQFSLKLSSVTAADTAVYYCAGLAVTMVRGVISPRYYDYMDVWGKGTTVTVSS
chain 2: DIVMTQSPDSLLVSLGERATITCKSSQNILYSSNNKNYLAWYQQKPGQPPKLLIYWASTRESGVPDRFSGSGSGTDFTLTISSLQAEDVAVYYCQQYYSSPYTFGPGTKVGIK

Biological target: SARS-CoV-2 Omicron BA.1 spike pseudovirus
Assay: pseudovirus neutralization IC50; higher = weaker neutralization
Procedure: (§1)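 Single-round VSV luciferase pseudovirus mixed with antibody dilutions for 1 h and put on Huh-7 cells for about a day; IC50 from the dose curve.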

Compared with B1, B2 is 5.9-fold higher in “pseudovirus neutralization IC50” value: 0.661 µg/mL for the first, 3.91 µg/mL for the second.

Compared with B3, B4 is higher in “pseudovirus neutralization IC50” value: 0.848 µg/mL for the first, > 10 µg/mL for the second.

Compared with B5, B6 is higher in “pseudovirus neutralization IC50” value: 0.0217 µg/mL for the first, > 10 µg/mL for the second.

Biological target: SARS-CoV-2 Omicron BA.2 spike pseudovirus
Assay: as above
Procedure: as §1

Going from B1 to B2, the “pseudovirus neutralization IC50” value rises from 1.11 µg/mL to 4.28 µg/mL (3.9-fold).

Compared with B3, B4 is higher in “pseudovirus neutralization IC50” value: 1.45 µg/mL for the first, > 10 µg/mL for the second.

Compared with B5, B6 is higher in “pseudovirus neutralization IC50” value: 0.0479 µg/mL for the first, > 10 µg/mL for the second.

Biological target: SARS-CoV-2 Omicron BA.2.75 spike pseudovirus
Assay: as above
Procedure: as §1

Compared with B1, B2 is 590-fold higher in “pseudovirus neutralization IC50” value: 0.00927 µg/mL for the first, 5.51 µg/mL for the second.

Going from B3 to B4, the “pseudovirus neutralization IC50” value rises from 0.932 µg/mL to > 10 µg/mL.

Compared with B5, B6 is higher in “pseudovirus neutralization IC50” value: 0.0311 µg/mL for the first, > 10 µg/mL for the second.

Biological target: SARS-CoV-2 Omicron BA.5 spike pseudovirus
Assay: as above
Procedure: as §1

First: B1
Second: B2
The “pseudovirus neutralization IC50” value of the first is 1.7-fold lower: 1.19 µg/mL for the first, 2.08 µg/mL for the second.

Compared with B3, B4 is higher in “pseudovirus neutralization IC50” value: 1.12 µg/mL for the first, > 10 µg/mL for the second.

Compared with B5, B6 is higher in “pseudovirus neutralization IC50” value: 0.618 µg/mL for the first, > 10 µg/mL for the second.

Biological target: SARS-CoV-2 Omicron BQ.1.1 spike pseudovirus
Assay: as above
Procedure: as §1

B1 and B2 are within 1.5-fold of each other in “pseudovirus neutralization IC50” value: 3.09 µg/mL for the first, 2.88 µg/mL for the second.

First: B3
Second: B4
The “pseudovirus neutralization IC50” value of the first is lower: 1.66 µg/mL for the first, > 10 µg/mL for the second.

First: B5
Second: B6
The “pseudovirus neutralization IC50” value of the first is lower: 2.06 µg/mL for the first, > 10 µg/mL for the second.

Biological target: SARS-CoV-2 Omicron XBB spike pseudovirus
Assay: as above
Procedure: as §1

Going from B1 to B2, the “pseudovirus neutralization IC50” value falls from > 10 µg/mL to 3.03 µg/mL.

Compared with B3, B4 is higher in “pseudovirus neutralization IC50” value: 2.6 µg/mL for the first, > 10 µg/mL for the second.

First: B5
Second: B6
The “pseudovirus neutralization IC50” value of the first is lower: 1.13 µg/mL for the first, > 10 µg/mL for the second.

Biological target: SARS-CoV-2 early D614G spike pseudovirus
Assay: as above
Procedure: as §1

Going from B1 to B2, the “pseudovirus neutralization IC50” value rises from 0.00315 µg/mL to > 10 µg/mL.

Going from B3 to B4, the “pseudovirus neutralization IC50” value rises from 2.34 µg/mL to 4.42 µg/mL (1.9-fold).

First: B5
Second: B6
The “pseudovirus neutralization IC50” value of the first is lower: 0.219 µg/mL for the first, > 10 µg/mL for the second.
